Anti-infective test results gathered from many reports (values: NIAID ChemDB through PubChem).

All rows: whole-cell or culture tests; agent: HIV-1; measure: EC50

ECn is the concentration giving n% inhibition of infection, replication or growth.

compound | strain | cells | method | result
CC(C)C1=C2[C@H]3CC[C@@H]4[C@@]5(C)CC[C@H](OC(=O)[C@H]6C[C@@H](C(=O)O)C6(C)C)C(C)(C)[C@@H]5CC[C@@]4(C)[C@]3(C)CC[C@@]2(CCNCC(C)(C)NC(=O)c2ccc(Cl)cc2OCCN2CCS(=O)(=O)CC2)CC1=O | 92HT599 | MT-2 | p24 / ELISA | <1 µM
COc1c(-c2cc(C)n(C)n2)c(O)c(S(=O)(=O)Oc2ccc([N+](=O)[O-])cc2)c2occc12 | RF | CEM-SS | cytopathic effect / MTS | 0.000034 µM
CC(=O)N[C@@H](CSC(=O)C(C)C)C(=O)NCCSC(=O)c1ccccc1 | BaL | MDM | RT activity | <150 µM
CNC(=O)NC(CCCCNC(=O)OCc1ccccc1)C(=O)OCc1ccccc1 | IIIB | CEM-IW + CEM | cytopathic effect / XTT | >44.1 µM
Cc1noc(C)c1CNC(=O)C[C@@]12CC[C@]3(C)[C@H](CC[C@@H]4[C@@]5(C)CC[C@H](OC(=O)[C@H]6C[C@@H](C(=O)O)C6(C)C)C(C)(C)[C@@H]5CC[C@]43C)C1=C(C(C)C)C(=O)C2 | 92HT599 | MT-2 | p24 / ELISA | <1 µM
CN(N=O)C(=O)NC(CCCCNC(=O)OCc1ccccc1)C(=O)OCc1ccccc1 | IIIB | CEM-IW + CEM | cytopathic effect / XTT | >21.8 µM
CC(C)C1=C2[C@H]3CC[C@@H]4[C@@]5(C)CC[C@H](OC(=O)[C@H]6C[C@@H](C(=O)O)C6(C)C)C(C)(C)[C@@H]5CC[C@@]4(C)[C@]3(C)CC[C@@]2([C@@H](O)CNC(=O)C(C)(C)NC(=O)c2ccc3ccccc3n2)CC1=O | 92HT599 | MT-2 | p24 / ELISA | <1 µM
CC(=O)N[C@@H](CS)C(=O)NCCSC(C)=O | BaL | MDM | RT activity | 45 µM
COc1c(C(=O)/C=C(/C)Nc2ccccc2)c(O)c(S(=O)(=O)Oc2ccc([N+](=O)[O-])cc2)c2occc12 | RF | CEM-SS | cytopathic effect / MTS | 0.000072 µM
CNC(=O)NCCCCC(NC(=O)OCc1ccccc1)C(=O)OCc1ccccc1 | IIIB | CEM-IW + CEM | cytopathic effect / XTT | >40.2 µM
Cc1ccc(C(=O)NC(C)(C)CNCC[C@@]23CC[C@]4(C)[C@H](CC[C@@H]5[C@@]6(C)CC[C@H](OC(=O)[C@H]7C[C@@H](C(=O)O)C7(C)C)C(C)(C)[C@@H]6CC[C@]54C)C2=C(C(C)C)C(=O)C3)nc1 | 92HT599 | MT-2 | p24 / ELISA | <1 µM
Nc1ccn([C@@H]2CS[C@H](CO)O2)c(=O)n1 | - | OM-10.1 | p24 | >20 µM
CC(C)C1=C2[C@H]3CC[C@@H]4[C@@]5(C)CC[C@H](OC(=O)[C@H]6C[C@@H](C(=O)O)C6(C)C)C(C)(C)[C@@H]5CC[C@@]4(C)[C@]3(C)CC[C@@]2([C@@H](O)CNC(=O)C(C)(C)NC(=O)CN2CCCCC2)CC1=O | 92HT599 | MT-2 | p24 / ELISA | <1 µM
COc1c(-c2cc(C)n(-c3ccccc3)n2)c(O)c(S(=O)(=O)OC2CCCCC2)c2occc12 | RF | CEM-SS | cytopathic effect / MTS | 0.000044 µM
COc1ccccc1N1CCN(c2c(F)cc3c(=O)c(C(=O)O)cn(C)c3c2CN(C)C)CC1 | - | OM-10.1 | p24 | 0.2 µM
COc1c(-c2cc(C)on2)c(O)c(S(=O)(=O)Oc2ccc([N+](=O)[O-])cc2)c2occc12 | RF | CEM-SS | cytopathic effect / MTS | 0.000052 µM
CC(C)C1=C2[C@H]3CC[C@@H]4[C@@]5(C)CC[C@H](OC(=O)[C@H]6C[C@@H](C(=O)O)C6(C)C)C(C)(C)[C@@H]5CC[C@@]4(C)[C@]3(C)CC[C@@]2(CCNCc2ccc3c(c2)OCO3)CC1=O | 92HT599 | MT-2 | p24 / ELISA | <1 µM
CC(=O)N[C@@H](CSC(=O)c1ccccc1)C(=O)NCCSC(=O)C(C)C | BaL | MDM | RT activity | <150 µM
C#CCNC(=O)NC(CCCCNC(=O)OCc1ccccc1)C(=O)OCc1ccccc1 | IIIB | CEM-IW + CEM | cytopathic effect / XTT | >82.3 µM
COc1c(C(=O)/C=C(/C)Nc2ccc([N+](=O)[O-])cc2)c(O)c(S(=O)(=O)Oc2ccc([N+](=O)[O-])cc2)c2occc12 | RF | CEM-SS | cytopathic effect / MTS | 0.000064 µM
CC(=O)N[C@@H](CS)C(=O)NCCSC(=O)C(C)(C)C | BaL | MDM | RT activity | 145 µM
C#CCNC(=O)NCCCCC(NC(=O)OCc1ccccc1)C(=O)OCc1ccccc1 | IIIB | CEM-IW + CEM | cytopathic effect / XTT | >31.7 µM
CC(C)C1=C2[C@H]3CC[C@@H]4[C@@]5(C)CC[C@H](OC(=O)[C@H]6C[C@@H](C(=O)O)C6(C)C)C(C)(C)[C@@H]5CC[C@@]4(C)[C@]3(C)CC[C@@]2(CCNCC(C)(C)NC(=O)c2cccnc2)CC1=O | 92HT599 | MT-2 | p24 / ELISA | <1 µM
Nc1nccc2c1ncn2[C@@H]1O[C@H](CO)[C@@H](O)[C@H]1O | 18601 unpaired | PBMC | p24 | 0.254 µM
Cc1cc(C(=O)NC(C)(C)CNCC[C@@]23CC[C@]4(C)[C@H](CC[C@@H]5[C@@]6(C)CC[C@H](OC(=O)[C@H]7C[C@@H](C(=O)O)C7(C)C)C(C)(C)[C@@H]6CC[C@]54C)C2=C(C(C)C)C(=O)C3)n[nH]1 | 92HT599 | MT-2 | p24 / ELISA | <1 µM
CC(=O)N[C@@H](CS)C(=O)NCCSC(=O)c1ccccc1 | BaL | MDM | RT activity | <150 µM
Cc1ccc(C(=O)NC(C)(C)CNC[C@H](O)[C@@]23CC[C@]4(C)[C@H](CC[C@@H]5[C@@]6(C)CC[C@H](OC(=O)[C@H]7C[C@@H](C(=O)O)C7(C)C)C(C)(C)[C@@H]6CC[C@]54C)C2=C(C(C)C)C(=O)C3)cc1 | 92HT599 | MT-2 | p24 / ELISA | <1 µM
COc1c(C(=O)/C=C(/C)Nc2ccc([N+](=O)[O-])cc2)c(O)c(S(=O)(=O)OC2CCCCC2)c2occc12 | RF | CEM-SS | cytopathic effect / MTS | 0.000071 µM

Repeating the first 3 entries:

compound	strain	cells	method	result
CC(C)C1=C2[C@H]3CC[C@@H]4[C@@]5(C)CC[C@H](OC(=O)[C@H]6C[C@@H](C(=O)O)C6(C)C)C(C)(C)[C@@H]5CC[C@@]4(C)[C@]3(C)CC[C@@]2(CCNCC(C)(C)NC(=O)c2ccc(Cl)cc2OCCN2CCS(=O)(=O)CC2)CC1=O	92HT599	MT-2	p24 / ELISA	<1 µM
COc1c(-c2cc(C)n(C)n2)c(O)c(S(=O)(=O)Oc2ccc([N+](=O)[O-])cc2)c2occc12	RF	CEM-SS	cytopathic effect / MTS	0.000034 µM
CC(=O)N[C@@H](CSC(=O)C(C)C)C(=O)NCCSC(=O)c1ccccc1	BaL	MDM	RT activity	<150 µM

Rows are shuffled and stem from different studies. An empty or dashed field is not shown.